Results of unrelated studies side by side (data: NIAID ChemDB).

Shared fields: tests in culture; organism: Mycobacterium avium complex

Blank or dashed fields: not listed here. Lines come from different laboratories, so protocols vary. MIC50, MIC90 and the like: level of inhibition, or share of isolates inhibited.

compound	endpoint	method	strain or isolate	value
CC[C@H]1OC(=O)[C@H](C)[C@@H](O[C@H]2C[C@@](C)(OC)[C@@H](O)[C@H](C)O2)[C@H](C)[C@@H](O[C@@H]2O[C@H](C)C[C@H](N(C)C)[C@H]2O)[C@](C)(OC)C[C@@H](C)C(=O)[C@H](C)[C@@H](O)[C@]1(C)O	MIC	-	3220	2 µg/mL
O=C(O)c1cn(C2CC2)c2c(F)c(N3CCS(=O)CC3)c(F)cc2c1=O	MIC	-	1915112	4 µg/mL
C[C@@H]1CN(c2c(F)c(N)c3c(=O)c(C(=O)O)cn(C4CC4)c3c2F)C[C@H](C)N1	MIC	broth dilution	17	2 µg/mL
NC[C@H]1O[C@H](O[C@H]2[C@H](O[C@@H]3O[C@H](CO)[C@@H](O)[C@H]3O)[C@@H](O)[C@H](N)C[C@@H]2N)[C@H](N)[C@@H](O)[C@@H]1O	MIC	-	Isolate 53	3.13 µg/mL
CC(C)(N)C1CCN(c2c(F)cc3c(=O)c(C(=O)O)cn(C4CC4)c3c2F)C1	MIC	-	1760694	8 µg/mL
NC[C@H]1O[C@H](O[C@H]2[C@H](O)[C@@H](O[C@H]3O[C@H](CO)[C@@H](O)[C@H](N)[C@H]3O)[C@H](N)C[C@@H]2N)[C@H](N)[C@@H](O)[C@@H]1O	MIC	-	Isolate 64	3.13 µg/mL
CO[C@H]1/C=C/O[C@@]2(C)Oc3c(C)c(O)c4c(O)c(c(/C=N/N5CCN(C)CC5)c(O)c4c3C2=O)NC(=O)/C(C)=C\C=C\[C@H](C)[C@H](O)[C@@H](C)[C@@H](O)[C@@H](C)[C@H](OC(C)=O)[C@@H]1C	MIC	-	3216	2 µg/mL
NCC[C@H](O)C(=O)N[C@@H]1C[C@H](N)[C@@H](O[C@H]2O[C@H](CN)[C@@H](O)[C@H](O)[C@H]2O)[C@H](O)[C@H]1O[C@H]1O[C@H](CO)[C@@H](O)[C@H](N)[C@H]1O	MIC	-	TMC 1406	0.39 µg/mL
NCC1CCN(c2c(F)cc3c(=O)c(C(=O)O)cn(C4CC4)c3c2F)C1	MIC90	-	14 strains	8 µg/mL
CC[C@@H](CO)NCCN[C@@H](CC)CO	MIC	-	N-289 (HIV-)	8 µg/mL
CN(C)C1CCN(c2c(F)cc3c(=O)c(C(=O)O)cn(C4CC4)c3c2F)C1	MIC	-	1988557	0.5 µg/mL
NC[C@@H]1O[C@H](O[C@H]2[C@@H](O)[C@H](O[C@@H]3[C@@H](O)[C@H](N)C[C@H](N)[C@H]3O[C@H]3O[C@H](CO)[C@@H](O)[C@H](O)[C@H]3N)O[C@@H]2CO)[C@H](N)[C@@H](O)[C@@H]1O	MIC	-	5718	<1.56 µg/mL
CC1COc2c(N3CCN(C)CC3)c(F)cc3c(=O)c(C(=O)O)cn1c23	MIC	-	CIPT 140310031	20 µg/mL
CC1COc2c(N3CCN(C)CC3)c(F)cc3c(=O)c(C(=O)O)cn1c23	MIC	-	1257/HIV-	4 µg/mL
O=C(O)c1cn(C2CC2)c2c(F)c(N3CCC(N4CCCC4)C3)c(F)cc2c1=O	MIC	-	1988557	1 µg/mL
CN1CCN(c2cc3c(cc2F)c(=O)c(C(=O)O)cn3-c2ccc(F)cc2)CC1	MIC	-	3212	16 µg/mL
CC[C@H]1OC(=O)[C@H](C)[C@@H](O[C@H]2C[C@@](C)(OC)[C@@H](O)[C@H](C)O2)[C@H](C)[C@@H](O[C@@H]2O[C@H](C)C[C@H](N(C)C)[C@H]2O)[C@](C)(OC)C[C@@H](C)C(=O)[C@H](C)[C@@H](O)[C@]1(C)O	MIC	-	1129	2 µg/mL
CC[C@@H](CO)NCCN[C@@H](CC)CO	MIC	-	13008 (serotype 20)	0.8 µg/mL
NCCC(O)C(N)CC(=O)NC1CNC(=O)C(C2CCN=C(N)N2)NC(=O)/C(=C/NC(N)=O)NC(=O)C(CO)NC(=O)C(CO)NC1=O	MIC	-	TMC 1469	12.5 µg/mL
C[C@@H]1CN(c2c(F)c(N)c3c(=O)c(C(=O)O)cn(C4CC4)c3c2F)C[C@H](C)N1	MIC	-	PI12/39	2 µg/mL
CO[C@H]1/C=C/O[C@@]2(C)Oc3c(C)c(O)c4c(O)c(c5c(c4c3C2=O)NC2(CCN(CC(C)C)CC2)N=5)=NC(=O)/C(C)=C\C=C\[C@H](C)[C@H](O)[C@@H](C)[C@@H](O)[C@@H](C)[C@H](OC(C)=O)[C@@H]1C	MIC	-	908-5	0.5 µg/mL
NC[C@H]1O[C@H](O[C@H]2[C@H](O)[C@@H](O[C@H]3O[C@H](CO)[C@@H](O)[C@H](N)[C@H]3O)[C@H](N)C[C@@H]2N)[C@H](O)[C@@H](O)[C@@H]1O	MIC	-	TMC 1469	6.25 µg/mL
CN[C@@H]1[C@H](O[C@H]2[C@H](O[C@H]3[C@H](O)[C@@H](O)[C@H](N=C(N)N)[C@@H](O)[C@@H]3N=C(N)N)O[C@@H](C)[C@]2(O)C=O)O[C@@H](CO)[C@H](O)[C@H]1O	MIC	-	13008 (serotype 20)	1.6 µg/mL
CN[C@@H]1[C@H](O[C@H]2[C@H](O[C@H]3[C@H](O)[C@@H](O)[C@H](N=C(N)N)[C@@H](O)[C@@H]3N=C(N)N)O[C@@H](C)[C@]2(O)C=O)O[C@@H](CO)[C@H](O)[C@H]1O	MIC	-	isolate C-29 30	400 µg/mL
CC(C)N=c1cc2n(-c3ccc(Cl)cc3)c3ccccc3nc-2cc1Nc1ccc(Cl)cc1	MIC	-	827/HIV+	0.25 µg/mL
O=C(O)c1cn(C2CC2)c2c(F)c(N3CCNCC3)c(F)cc2c1=O	MIC	-	1988557	4 µg/mL
NNC(=O)c1ccncc1	MIC	-	1069	>16 µg/mL
NC[C@H]1O[C@H](O[C@H]2[C@H](O)[C@@H](O[C@H]3O[C@H](CO)[C@@H](O)[C@H](N)[C@H]3O)[C@H](N)C[C@@H]2N)[C@H](O)[C@@H](O)[C@@H]1O	MIC	-	N-238 (HIV-)	8 µg/mL
CO[C@H]1/C=C/O[C@@]2(C)Oc3c(C)c(O)c4c(O)c(c(/C=N/N5CCN(C/C=C/c6ccccc6)CC5)c(O)c4c3C2=O)NC(=O)/C(C)=C\C=C\[C@H](C)[C@H](O)[C@@H](C)[C@@H](O)[C@@H](C)[C@H](OC(C)=O)[C@@H]1C	MIC	-	LR545	≤0.015 µg/mL
CC1CCN(c2c(F)cc3c(=O)c(C(=O)O)cn(C4CC4)c3c2F)C1	MIC	-	1988557	2 µg/mL
CCn1cc(C(=O)O)c(=O)c2cc(F)c(N3CCNCC3)cc21	MIC	-	CIPT 14031005	>40 µg/mL
CC(C)N=c1cc2n(-c3ccc(Cl)cc3)c3ccccc3nc-2cc1Nc1ccc(Cl)cc1	MIC	-	LR25/HIV+	<0.12 µg/mL
CCC1CCN(c2c(F)cc3c(=O)c(C(=O)O)cn(C4CC4)c3c2F)C1	MIC	-	1915112	4 µg/mL

A second listing of 4 rows from above:

compound	endpoint	method	strain or isolate	value
CC1COc2c(N3CCN(C)CC3)c(F)cc3c(=O)c(C(=O)O)cn1c23	MIC	-	CIPT 140310031	20 µg/mL
NCC[C@H](O)C(=O)N[C@@H]1C[C@H](N)[C@@H](O[C@H]2O[C@H](CN)[C@@H](O)[C@H](O)[C@H]2O)[C@H](O)[C@H]1O[C@H]1O[C@H](CO)[C@@H](O)[C@H](N)[C@H]1O	MIC	-	TMC 1406	0.39 µg/mL
CC[C@@H](CO)NCCN[C@@H](CC)CO	MIC	-	13008 (serotype 20)	0.8 µg/mL
CN(C)C1CCN(c2c(F)cc3c(=O)c(C(=O)O)cn(C4CC4)c3c2F)C1	MIC	-	1988557	0.5 µg/mL